Experimental data taken from patent US12535491B2, “Vaccine comprising protein-targeted (PT) extracellular DNA isolated from bacterial matrix” (priority 2018, dated 2026).

Tested on: Human Herpes Virus 8
Test: Immunostaining of Kaposi's sarcoma tissue sections with antibodies to gp160 or its PrDs region
Settings: primary antibody dilution 1:1000

Substance: gp160
- Immunostaining, HHV-8 negative: 20%
- Immunostaining, HHV-8 positive: 80%
